The values below come from PubChem BioAssay AID1800 (The Scripps Research Institute Molecular Screening Center, 2009).

Broadly, the inhibition is the drop in the measured response relative to a control, in per cent.

The list shows a part of the results, in another mix than the full data. Calls of active or inactive are those of the source.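 How the source made its calls: active means inhibition above the mean of all tested compounds plus 3 SD, set per campaign (cut at about 35% in these data); inactive means the rest.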

The test relates to Hepatitis C virus NS3 helicase. Nature of the test: HCV NS3 DNA unwinding blockers – biochemical, Cy5 molecular beacon fluorescence, primary screen (AID 1800).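 Further: 0% = DMSO wells and 100% = thioflavine S control wells.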 Particulars: at 10.9 µM, stronger effect = higher value. The method, boiled down:
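Control set: DMSO versus 110 µM thioflavine S; Material: NS3 helicase fragment of HCV; Measured by: Cy5 fluorescence at 0 and 60 min, beacon hairpin quenching; Read-out basis: percent inhibition from t60/t0 fluorescence ratio; Times: reaction time 60 min, 25 °C; Repeats: single replicate; Compound dosing: single dose, 10.9 µM nominal final, DMSO 0.8% final.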
As for `CCOC(=O)c1ccc(NC(=O)C(C)(CCl)SC)cc1` (centres undefined), the inhibition was inactive: -8.65%.
For the molecule `O=C(OC1CN2CCC1CC2)c1cccc([N+](=O)[O-])c1` (centres undefined), the inhibition was inactive: -1.78%.
The figure for `O=C(Nc1ccncc1[N+](=O)[O-])c1ccc([N+](=O)[O-])cc1[N+](=O)[O-]` is inactive: -2.93%; for `O=C(COc1ccccc1)OC1CN2CCC1CC2` (centres undefined) it is inactive: 1.59%; for `COP1(=S)c2c(C)nn(CCC#N)c2N=C(c2ccc(F)cc2)N1C` (centres undefined) it is inactive: -11.3%.
Consider `CC1(CBr)Cn2c(nc3ccccc3c2=O)S1` (centres undefined), for which the inhibition was inactive: -2.49%.
The figure for `O=[As](O)(c1ccccc1Br)c1ccccc1Br` is inactive: -0.21%; for `CN(C(=O)Cc1ccc(Cl)c(Cl)c1)[C@@H]1CCCC[C@H]1N1CCCC1` it is inactive: -7.36%.
Regarding `CC(C)/C=N\N=C(\N)N[N+](=O)[O-]`, the inhibition is inactive: -15.5%.
Turning to `CC(C)(C)C(=O)NC(Sc1ncccn1)C(Cl)(Cl)Cl` (centres undefined), the inhibition was inactive: 3.65%.
Consider `Clc1n[nH]nc1-c1nn[nH][15n]1`, for which the inhibition is inactive: -6.27%.
As to `CCOP(=O)(Nc1ccc(C)cn1)OCC`, the inhibition was inactive: 0.22%.
As for `CCOP(=O)(NC(=NC(C)c1ccccc1)NC(C)c1ccccc1)OCC` (centres undefined), the inhibition is inactive: 2.7%.
With `CCC1=CC2Cc3nc4ccc(Cl)cc4c(N)c3C(C1)C2` (centres undefined), the inhibition was inactive: -26.2%.
For `O=P1(Nc2ccccn2)COc2ccccc2OC1`, the inhibition was inactive: -4.98%.
Turning to `O=P1(Nc2ccc(Br)cn2)COc2ccccc2OC1`, the inhibition is inactive: -0.86%.
The result for `O=[As](O)(c1cccs1)c1cccs1` reads inactive: 7.32%; that for `Cc1ccc(OCC(=O)OC2CN3CCC2CC3)cc1` (centres undefined), inactive: 5.6%; that for `Nc1cccc([As](=O)(O)c2ccccc2)c1`, inactive: 5.17%.
For the molecule `O=P1(Nc2ncccn2)COc2ccccc2OC1`, the inhibition was inactive: 2.52%.
For `O=C(/C=C/c1ccccc1)OC1CN2CCC1CC2` (centres undefined), the inhibition is inactive: 4.74%.
As for `CN(C)C1(CNC(=O)c2ccc(S(C)(=O)=O)cc2)CCCCC1`, the inhibition is inactive: -1.12%.
With `Cc1ccc(C(=O)OC2CN3CCC2CC3)cc1` (centres undefined), the inhibition was inactive: -10.3%.
Regarding `CC1CCC(C(C)C)C(OP(=O)(Nc2ccccn2)c2ccccc2)C1` (centres undefined), the inhibition is inactive: -10.7%.
Regarding `Cc1nn(-c2ccccc2)c2c1P(=O)(N1CCOCC1)N(C)C(c1ccccc1)=N2` (centres undefined), the inhibition was inactive: -2.49%.
Turning to `O=[N+]([O-])c1ccc2c(c1)nnn2O`, the inhibition is inactive: 4.96%.
The result for `CCOP1(=S)c2c(C)nn(CCC#N)c2N=C(c2ccc(F)cc2)N1C` (centres undefined) reads inactive: 1.2%; that for `O=C(O)COc1ccc([As](=O)(O)O)cc1[N+](=O)[O-]`, inactive: 19%.
Take `Nc1ccccc1[As](=O)(O)c1ccccc1`: the inhibition was inactive: 9.3%.
For `CS(=O)(=O)c1cc([N+](=O)[O-])c2no[n+]([O-])c2c1`, the inhibition was inactive: 4.06%.
With `O=P(Nc1nccs1)(c1ccccc1)c1nc2ccccc2s1` (centres undefined), the inhibition is inactive: -3.59%.
The figure for `O=P(Nc1nccs1)(Oc1ccccc1)Oc1ccccc1` is inactive: 12.7%; for `CCOP1(=S)c2c(C)nn(CCC#N)c2N=C(c2ccccc2F)N1C` (centres undefined) it is inactive: -3.94%; for `CCOP(=O)(Nc1cccc2ccccc12)OCC` it is inactive: -6.97%.
With `COc1cc(C2NCCC3(OCCO3)C2(C)C)cc(OC)c1OC` (centres undefined), the inhibition is inactive: 6.87%.
The result for `CCCOP(=S)(Nc1nc(N)cc(=O)[nH]1)OCCC` reads inactive: 8.73%; that for `Nc1cccc2c([As](=O)(O)O)cccc12`, inactive: 26.8%.
The result for `Cc1ccc(NCCc2c([N+](=O)[O-])cc([N+](=O)[O-])cc2[N+](=O)[O-])cc1` reads inactive: 31.2%; that for `O=[As](O)(c1cccc(O)c1)c1cccc(O)c1`, inactive: 6.97%; that for `Cc1cccc(OCC(=O)OC2CN3CCC2CC3)c1` (centres undefined), inactive: -2.73%.
For `CS(=O)(=O)c1ccc(Cl)c(NC(=O)COC(=O)C(O)(c2ccccc2)c2ccccc2)c1`, the inhibition is inactive: -3.78%.
The result for `COc1cc(C(=O)NCC2(N3CCOCC3)CCCCC2)cc(Cl)c1OC(C)C` reads inactive: 1.19%; that for `O=[As](O)(O)c1cccnc1`, inactive: -4.27%; that for `O=C(OC1CN2CCC1CC2)c1ccc(Cl)cc1` (centres undefined), inactive: -9.57%.
